Anti-infective test results gathered from many reports (values: NIAID ChemDB through PubChem).

All rows: growth or infection tests; organism: Candida albicans; measure: MFC

Blank or dashed fields: not listed here.

SMILES | strain | value
NC(=S)c1ccnc(SC2CCCCC2)c1 | 42 | 100 µg/mL
Clc1ccc(CO/N=C2/c3ccccc3OCC2n2cncn2)cc1 | ATCC 10231 | 64 µg/mL
NC(=NC1CCCC1)c1ccc(-c2ccc(-c3ccc(C(N)=NC4CCCC4)cc3)o2)cc1 | Isolate 2370 fluconazole-resistant | 25 µg/mL
CC1(C)CC[C@]2(C(=O)O)CC[C@]3(C)C(=CC[C@@H]4[C@@]5(C)CC[C@H](O[C@@H]6OC[C@H](O)[C@H](O)C6O)[C@@](C)(CO)[C@@H]5CC[C@]43C)[C@@H]2C1 | Y0109 | >100 µg/mL
CCC(C)CC(C)CCCCCCCCC(=O)NC1CCCNC(=O)[C@@H]2[C@@H](O)[C@@H](C)CN2C(=O)[C@H]([C@H](O)CC(N)=O)NC(=O)[C@H](C(O)[C@H](O)c2ccc(O)cc2)NC(=O)[C@@H]2C[C@@H](O)CN2C(=O)[C@H]([C@@H](C)O)NC1=O | MY1208 | 1 µg/mL
CCCCCCCCCSc1cc(C(N)=S)ccn1 | 176 | >200 µg/mL
COc1ccc(CC(Cc2ccc(-c3ccccc3)cc2)n2ccnc2)cc1 | - | >100 µM
Cc1onc(-c2nn(C)c(C)c2[N+](=O)[O-])c1[N+](=O)[O-] | - | >200 µM
Clc1ccc(CO/N=C2/c3ccccc3OCC2n2cncn2)cc1Cl | ATCC 10231 | >64 µg/mL
CCCCCCSc1cc(C(N)=S)ccn1 | 42 | 50 µg/mL
N/C(=N/N=C1CCCCCC1)SCc1ccccc1Cl | - | >200 µg/mL
Clc1ccc(CN(Cc2ccc(-c3ccccc3)cc2)n2ccnc2)c(Cl)c1 | - | 6.2 µM
c1ccc(-c2csc(NN=C3CCCCCCC3)n2)cc1 | - | 6.25 µg/mL
CCC(C)CC(C)CCCCCCCCC(=O)NC1C[C@H](O)[C@@H](O)NC(=O)[C@@H]2[C@@H](O)[C@@H](C)CN2C(=O)[C@H]([C@H](O)CC(N)=O)NC(=O)[C@H](C(O)[C@H](O)c2ccc(O)cc2)NC(=O)[C@@H]2C[C@@H](O)CN2C(=O)[C@H]([C@@H](C)O)NC1=O | MY1208 | 0.5 µg/mL
Clc1ccc(CO/N=C2/c3ccc(Cl)cc3OCC2n2cnnc2)cc1 | ATCC 10231 | >64 µg/mL
CC1(C)CC[C@]2(C(=O)O)CC[C@]3(C)C(=CC[C@@H]4[C@@]5(C)CC[C@H](OC6O[C@H](CO)[C@@H](O)[C@H](O)[C@H]6OC6O[C@H](CO)[C@@H](O)[C@H](O)[C@H]6O)[C@@](C)(CO)[C@@H]5CC[C@]43C)[C@@H]2C1 | ATCC 90029 | >100 µg/mL
Cc1ccc(CC(Cc2ccc(-c3ccccc3)cc2)n2ccnc2)cc1 | - | 33 µM
CCCn1nc(C)c(N=O)c1-c1cc(C)on1 | - | 7.4 µM
Fc1ccccc1CO/N=C1\c2ccccc2OCC1n1cncn1 | ATCC 10231 | >64 µg/mL
C[C@@H]1O[C@@H](O[C@H]2[C@H](O[C@H]3CC[C@@]4(C)[C@@H](CC[C@]5(C)[C@@H]4CC=C4[C@@H]6CC(C)(C)CC[C@]6(C(=O)O)CC[C@]45C)[C@]3(C)CO)OC[C@H](O)[C@@H]2O)[C@H](O)[C@H](O)[C@H]1O | Clinical isolates | 25 µg/mL
OC(Cn1cncn1)(Cn1cncn1)c1ccc(F)cc1F | 2715 | >100 µg/mL
C[C@@H]1O[C@@H](O[C@H]2[C@H](O)[C@@H](O)C(OC3[C@H](O[C@H]4CC[C@]5(C)[C@H]6CC=C7[C@@H]8CC(C)(C)CC[C@]8(C(=O)O)CC[C@@]7(C)[C@]6(C)CC[C@H]5C4(C)C)OC[C@H](O)[C@@H]3O)O[C@@H]2CO)[C@H](O)[C@H](O)[C@H]1O | Clinical isolates | >100 µg/mL
Clc1ccc(CC(Cc2ccc(-c3ccccc3)cc2)n2ccnc2)c(Cl)c1 | - | 40 µM
CCCCn1nc(C)c(N=O)c1-c1cc(C)on1 | - | 22 µM
COC1CC2CCC(C)C(O)(O2)C(O)C(O)N2CCCCC2C(=O)OC(C(C)CC2CCC(O)C(OC)C2)CC(=O)C(C)/C=C(\C)C(O)C(OC)C(=O)C(C)CC(C)/C=C/C=C/C=C/1C | TOR1-1/TOR1 | >100 µg/mL
CCC(C)CC(C)CCCCCCCCC(=O)NC1CCCNC(=O)[C@@H]2[C@@H](O)CCN2C(=O)[C@H]([C@H](O)CC(N)=O)NC(=O)[C@H](C(O)[C@H](O)c2ccc(O)cc2)NC(=O)[C@@H]2C[C@@H](O)CN2C(=O)[C@H]([C@@H](C)O)NC1=O | MY1208 | 1 µg/mL
CSc1cc(C(N)=S)ccn1 | 3a | >200 µg/mL
COC1CC2CCC(C)C(O)(O2)C(=O)C(=O)N2CCCCC2C(=O)OC(C(C)CC2CCC(O)C(OC)C2)CC(=O)C(C)/C=C(\C)C(O)C(OC)C(=O)C(C)C[C@](C)(N(O)C(=O)NN2CCCCC2)/C=C/C=C/C=C/1C | TOR1-1/TOR1 | >100 µg/mL
N/C(=N/N=C1CCCCCCC1)SCc1ccccc1 | - | >200 µg/mL
Cc1cc(-c2nn(C)c(C)c2N=O)no1 | - | >200 µM
N/C(=N/N=C1CCCCCC1)SCc1ccccc1 | - | >200 µg/mL
Cc1cc(-c2c(N=O)c(C)nn2-c2ccccc2)no1 | - | >200 µM

For reference, 3 entries again:

CSc1cc(C(N)=S)ccn1 ; strain: 3a ; value: >200 µg/mL
CC1(C)CC[C@]2(C(=O)O)CC[C@]3(C)C(=CC[C@@H]4[C@@]5(C)CC[C@H](O[C@@H]6OC[C@H](O)[C@H](O)C6O)[C@@](C)(CO)[C@@H]5CC[C@]43C)[C@@H]2C1 ; strain: Y0109 ; value: >100 µg/mL
OC(Cn1cncn1)(Cn1cncn1)c1ccc(F)cc1F ; strain: 2715 ; value: >100 µg/mL

Conditions beyond the fields shown may differ between rows.